A mixed list of measured activities; the numbers were collected in NIAID ChemDB.

Common to all: tests in culture; agent: HIV-1; cells: MT-4; measure: EC50

Blank or dashed fields: not listed here. Lines come from different laboratories, so protocols vary. a–b is a range or a potency band. ECn is the concentration giving n% inhibition of infection, replication or growth.

SMILES,strain or isolate,mutations,method,result
CC(C)CN(C[C@@H](O)[C@H](Cc1ccccc1)NC(=O)O[C@H]1CO[C@H]2OCC[C@H]21)S(=O)(=O)c1ccc2c(c1)/C(=C/c1ccc(-c3ccccn3)cc1)C(=O)N2,LAI,,cytopathic effect / MTT,0.025 µM
CC(C)C1=C2[C@H]3CC[C@@H]4[C@@]5(C)CC[C@H](OC(=O)C6C[C@@H](C(=O)O)C6(C)C)C(C)(C)[C@@H]5CC[C@@]4(C)[C@]3(C)CC[C@@]2(NC(=O)C(C)(C)NC(=O)c2ncccn2)CC1=O,NL4-3,,p24,>0.01 µM
Cc1cc(C)cc(Cc2c(I)c(=O)[nH]c(=O)n2COCc2ccccc2)c1,A17,K103N/Y181C,p24 / ELISA,0.091 µM
CCc1c(Cc2cc(C)cc(C)c2)n(COCc2ccc(C#CCO)cc2)c(=O)[nH]c1=O,IIIB,EFV-resistant (K103R V179D P225H),MTT,0.5 µM
CC(C)C1=C2[C@H]3CC[C@@H]4[C@@]5(C)CC[C@H](OC(=O)C6C[C@@H](C(=O)O)C6(C)C)C(C)(C)[C@@H]5CC[C@@]4(C)[C@]3(C)CC[C@@]2(NC(=O)C(C)(C)NS(=O)(=O)c2ccc(Cl)cc2)CC1=O,NL4-3,V7A,p24,>0.05 µM
CC(C)CN(C[C@@H](O)[C@H](Cc1ccccc1)NC(=O)O[C@H]1CO[C@H]2OCC[C@H]21)S(=O)(=O)c1ccc2c(c1)/C(=C/c1ccc(N(C)C)cc1)C(=O)N2,F,PR-L10F M46I M71V I84V,cytopathic effect / MTT,0.14 µM
N#CC1=CC2C(c3ccccc3N2CCN2CCCC2)N(c2ccc(C#N)cc2)C1=O,LAI,,cytopathic effect / MTT,1–32 µM
CC(C)[C@H](NC(=O)OCc1ccccn1)C(=O)N[C@@H](Cc1ccccc1)[C@@H](O)C[C@H](Cc1ccccc1)NC(=O)OCc1cccnc1,NL4-3,,p24,<0.8 µM
Cc1ccc(/C=C2\C(=O)Nc3ccc(S(=O)(=O)N(CC(C)C)C[C@@H](O)[C@H](Cc4ccccc4)NC(=O)O[C@H]4CO[C@H]5OCC[C@H]54)cc32)o1,LAI,,cytopathic effect / MTT,0.009 µM
CC(C)CN(C[C@@H](O)[C@H](Cc1ccccc1)NC(=O)O[C@H]1CCOC1)S(=O)(=O)c1ccc(N)cc1,T13632,V32I I50V L76V V82I,reporter gene,12111 nM
C#Cc1ccc(Nc2nccc(Oc3c(C)cc(-c4cn(Cc5ccc(C(=O)OC)cc5)nn4)cc3C)n2)cc1,IIIB,L100I,MTT,1.86 µM
CCc1c(Cc2cc(C)cc(C)c2)n(COCC#Cc2cccc(C#N)c2)c(=O)[nH]c1=O,IIIB,EFV-resistant (K103R V179D P225H),MTT,7.5 µM
Cc1cc(/C=C2\C(=O)Nc3ccc(S(=O)(=O)N(CC(C)C)C[C@@H](O)[C@H](Cc4ccccc4)NC(=O)O[C@H]4CO[C@H]5OCC[C@H]54)cc32)cc(C)c1O,LAI,,cytopathic effect / MTT,0.025 µM
CN(CCN1CCOCC1)C(=O)CN1c2ccccc2C2C1C=C(C#N)C(=O)N2c1ccc([N+](=O)[O-])cc1,LAI,,cytopathic effect / MTT,1–32 µM
CC(C)C1=C2[C@H]3CC[C@@H]4[C@@]5(C)CC[C@H](OC(=O)C6C[C@@H](C(=O)O)C6(C)C)C(C)(C)[C@@H]5CC[C@@]4(C)[C@]3(C)CC[C@@]2(NC(=O)C(C)(C)NC(=O)c2ccc(CN3CCS(=O)(=O)CC3)cc2)CC1=O,NL4-3,V7A,p24,>0.05 µM
CCc1c(Cc2cc(C)cc(C)c2)n(COCC#Cc2cccs2)c(=O)[nH]c1=O,IIIB,EFV-resistant (K103R V179D P225H),MTT,15 µM
C#Cc1ccc(Nc2nccc(Oc3c(C)cc(-c4cn(CCc5cccs5)nn4)cc3C)n2)cc1,IIIB,,MTT,0.135 µM
CN1c2ccccc2C2C1C=CC(=O)N2c1ccc(-c2noc(C(F)(F)F)n2)cc1,LAI,,cytopathic effect / MTT,>32 µM
CC(C)C1=C2[C@H]3CC[C@@H]4[C@@]5(C)CC[C@H](OC(=O)C6C[C@@H](C(=O)O)C6(C)C)C(C)(C)[C@@H]5CC[C@@]4(C)[C@]3(C)CC[C@@]2(NC(=O)C2(NC(=O)c3ncccn3)CCC2)CC1=O,NL4-3,,p24,>0.01 µM
Nc1ccn([C@H]2CC[C@@H](CO)O2)c(=O)n1,Clinical isolate,,MTT,3.62 µg/mL
C=CCN1c2ccccc2C2C1C=C(C#N)C(=O)N2c1ccc(C#N)cc1,LAI,,cytopathic effect / MTT,1–32 µM
Cc1cccnc1C(=O)NC(C)(C)C(=O)N[C@@]12CC[C@]3(C)[C@H](CC[C@@H]4[C@@]5(C)CC[C@H](OC(=O)C6C[C@@H](C(=O)O)C6(C)C)C(C)(C)[C@@H]5CC[C@]43C)C1=C(C(C)C)C(=O)C2,NL4-3,V7A,p24,0.01001–0.05 µM
Cc1cc(/C=C/C#N)cc(C)c1Oc1ccnc(Nc2ccc(CN3CCN(S(=O)(=O)N(C)C)CC3)cc2)n1,RES056,,MTT,>3.07 µM
CCc1c(Cc2cc(C)cc(C)c2)n(COCC#Cc2cc3ccccc3c3ccccc23)c(=O)[nH]c1=O,IIIB,Y181C,MTT,>80 µM
CC(C)C1=C2[C@H]3CC[C@@H]4[C@@]5(C)CC[C@H](OC(=O)C6C[C@@H](C(=O)O)C6(C)C)C(C)(C)[C@@H]5CC[C@@]4(C)[C@]3(C)CC[C@@]2(NC(=O)C(C)(C)NC(=O)c2cccnc2N2CCOCC2)CC1=O,NL4-3,V7A,p24,>0.05 µM
Nc1nc(=O)n([C@H]2CC[C@@H](CO)O2)cc1F,RF,,cytopathic effect / MTT,0.2 µM

Repeating the first 2 entries:

CC(C)CN(C[C@@H](O)[C@H](Cc1ccccc1)NC(=O)O[C@H]1CO[C@H]2OCC[C@H]21)S(=O)(=O)c1ccc2c(c1)/C(=C/c1ccc(-c3ccccn3)cc1)C(=O)N2 ; strain or isolate: LAI ; method: cytopathic effect / MTT ; result: 0.025 µM
CC(C)C1=C2[C@H]3CC[C@@H]4[C@@]5(C)CC[C@H](OC(=O)C6C[C@@H](C(=O)O)C6(C)C)C(C)(C)[C@@H]5CC[C@@]4(C)[C@]3(C)CC[C@@]2(NC(=O)C(C)(C)NC(=O)c2ncccn2)CC1=O ; strain or isolate: NL4-3 ; method: p24 ; result: >0.01 µM